Compound potency records, mixed from different reports. Data source: NIAID ChemDB in PubChem.

Common to all: whole-cell or culture tests; organism: Rhinovirus

An empty or dashed field is not shown.

structure	cells	tested at	strain	measure	read by	value
Cc1cc(CCCCCOc2cc(Cl)c(-c3nnco3)c(Cl)c2)on1	-	-	Serotype 15	MIC80	-	1.92 µg/mL
CN(C)c1nc(C(F)(F)F)nc2c1ncn2Cc1ccc(Br)cc1	M-HELA	8 µM	Serotype 19	inhibition	plaque count	27%
Cc1cc(CCCOc2cc(Cl)c(-c3nnc(C)o3)c(Cl)c2)on1	-	-	serotype 2 1A 1B 6 14 21 22 15 25 30 50 67 89 86 41	MIC50	-	0.054 µg/mL
Cc1cc(CCCOc2c(C)cc(-c3noc(C(F)(F)F)n3)cc2C)on1	OHIO HELA-I	-	Isolate 31	EC50	cytopathic effect / visual reading	1.45 µg/mL
Cc1cc(CCCCCOc2c(Cl)cc(C3=NCCO3)cc2Cl)on1	HeLa	-	TYPE 87	EC50	plaque count	2.2 µg/mL
CN(C)c1nc(C(F)(F)F)nc2c1ncn2Cc1ccc(F)cc1	M-HELA	-	Serotype 5	EC50	plaque count	>8 µM
Cc1cc(CCCCCOc2cc(Cl)c(-c3nnc(C)o3)c(Cl)c2)on1	-	-	Serotype 22	MIC80	-	0.018 µg/mL
CN(C)c1nc(C(F)(F)F)nc2c1ncn2Cc1ccccc1	M-HELA	8 µM	Serotype 19	inhibition	plaque count	32%
O=[N+]([O-])c1ccc(Cn2cnc3c(Nc4cccc(F)c4)nc(C(F)(F)F)nc32)cc1	M-HELA	-	Serotype 1B	EC50	plaque count	1.5 µM
Cc1ccc(Cn2cnc3c(N(C)C)nc(C(F)(F)F)nc32)cc1	M-HELA	8 µM	Serotype 5	inhibition	plaque count	18%
O=S(=O)([O-])c1ccc2c(NS(=O)(=O)c3ccccc3)cc(S(=O)(=O)[O-])cc2c1	Human embryonic lung cells	10 µg/mL	-	inhibition	cytopathic effect	0%
Fc1cccc(Nc2nc(C(F)(F)F)nc3c2ncn3Cc2ccccc2F)c1	M-HELA	-	Serotype 1B	EC50	plaque count	3.9 µM
O=S(=O)([O-])c1ccc(NS(=O)(=O)c2ccccc2)c2c(S(=O)(=O)[O-])cccc12	Human amnion AV3 cells	5 µg/mL	-	inhibition	cytopathic effect	20%
CCO/N=C/c1ccc(OCCC2CCN(c3ccc(Cl)nn3)CC2)cc1	KB	-	5986 (ICAM-1 receptor group 18)	EC50	neutral red	0.155 µM
O=C(Nc1cc(S(=O)(=O)O)cc2cc(S(=O)(=O)O)cc(O)c12)c1ccccc1	Human amnion AV3 cells	5 µg/mL	-	inhibition	cytopathic effect	0%
Cc1ccc(Cn2cnc3c(N(C)C)nc(C(F)(F)F)nc32)c(C)c1	M-HELA	8 µM	Serotype 30	inhibition	plaque count	33%
Fc1cccc(Cn2cnc3c(Nc4cccc(F)c4)nc(C(F)(F)F)nc32)c1	M-HELA	-	Serotype 3	EC50	plaque count	5.6 µM
O=C(Nc1cc(S(=O)(=O)[O-])cc2cc(S(=O)(=O)[O-])ccc12)c1ccccc1	Human embryonic lung cells	50 µg/mL	-	inhibition	cytopathic effect	10%
CN(C)c1nc(C(F)(F)F)nc2c1ncn2Cc1ccc(Cl)c(Cl)c1	M-HELA	-	TYPE 1B	EC50	plaque count	0.12 µM

Repeating the final 2 entries:

structure	cells	tested at	strain	measure	read by	value
O=C(Nc1cc(S(=O)(=O)[O-])cc2cc(S(=O)(=O)[O-])ccc12)c1ccccc1	Human embryonic lung cells	50 µg/mL	-	inhibition	cytopathic effect	10%
CN(C)c1nc(C(F)(F)F)nc2c1ncn2Cc1ccc(Cl)c(Cl)c1	M-HELA	-	TYPE 1B	EC50	plaque count	0.12 µM

Neighbouring rows are from separate reports. ECn is the concentration giving n% inhibition of infection, replication or growth. Percent inhibition refers to the dose given; in toxicity tests it is the harm to the cells. MIC50, MIC90 and the like: level of inhibition, or share of isolates inhibited.